Compound potency records, mixed from different reports. Data source: NIAID ChemDB in PubChem.

All rows: enzyme or target tests; organism: HIV-1; protein: Reverse transcriptase; measure: IC50

Neighbouring rows are from separate reports.

structure | strain or isolate | method | mutations | value
Cc1ccc(-c2cs/c(=N\N=C3\C(=O)Nc4ccc(Cl)cc43)n2C)cc1 |  | RT activity / nucleotide incorporation / fluorescence |  | 85 µM
Cc1cc(S(N)(=O)=O)ccc1NC(=O)CSc1nnc(Br)n1-c1ccc(C)c2c1CCCC2 |  | nucleotide incorporation / radiometric | RT-Y181C | <0.05 µM
Cc1cc(C)c(-n2nnnc2SCC(=O)c2ccccc2[N+](=O)[O-])c(C)c1 |  | fluorescence |  | ≥0.1 µM
CC(C)(O)C#Cc1ccc(NC(=O)CSc2nnnn2-c2cc3c(cc2Cl)CCC3)c(Cl)c1 |  | PicoGreen / fluorescence | RT-K103 Y181C | <1 µM
C=CCN1C(=O)c2ccnnc2Oc2ccc(C)cc21 |  | ELISA |  | <330 µM
CCN1c2ncc(CCOc3ccc(C(=O)O)c4c3CCN(C(=O)OC)C4)cc2C(=O)N(C)c2cccnc21 |  | nucleotide incorporation / radiometric | RT-V106A | >1 µM
Cn1c(-c2ccc(Cl)cc2)cs/c1=N\N=C1\C(=O)Nc2ccc(Cl)cc21 |  | RT activity / nucleotide incorporation / fluorescence |  | 39 µM
CCN1c2ncc(CCOc3ccc(-c4ccc(C(=O)O)s4)cc3C)cc2C(=O)N(C)c2cccnc21 | IIIB | nucleotide incorporation / radiometric |  | <0.05 µM
CCNc1cccnc1N1CCN(C(=O)c2cc3ccccc3[nH]2)CC1 |  | nucleotide incorporation |  | <100 µM
CCN1C(=O)c2ccnnc2Oc2ccc(OC)cc21 |  | ELISA |  | <330 µM
CCc1ccc(-n2c(C)nnc2SCC(=O)Nc2ccc(S(N)(=O)=O)cc2Cl)c2c1CCCC2 |  | nucleotide incorporation / radiometric | RT-Y188L | >0.1 µM
Cn1c(-c2ccc([N+](=O)[O-])cc2)cs/c1=N\N=C1\C(=O)Nc2ccc(Cl)cc21 |  | RT activity / nucleotide incorporation / fluorescence |  | 26 µM
CCc1ccc(-n2c(Br)nnc2SCC(=O)Nc2ccc(S(N)(=O)=O)cc2Br)c2ccccc12 |  | nucleotide incorporation / radiometric |  | <0.05 µM
CCN1c2ncc(CCOc3ccc(CCC(=O)O)c4ccccc34)cc2C(=O)Nc2c(C)cc(F)nc21 |  | nucleotide incorporation / radiometric | RT-K103N Y181C | 0.1–1 µM
COc1ccc(-n2nnnc2SCC(=O)Nc2ccccc2[N+](=O)[O-])cc1 |  | fluorescence |  | ≥0.1 µM
Cc1ccc(-n2nccc2OCC(=O)Nc2ccc(-c3ccc(CC(=O)O)cc3)cc2Cl)c(Cl)c1 | WT | PicoGreen / fluorescence |  | <1 µM
CCc1cc(C2CC2)ccc1-n1c(Br)nnc1SCC(=O)Nc1ccc(C(=O)O)cc1Cl |  | nucleotide incorporation / radiometric |  | <0.05 µM
CC(C)Nc1cccnc1N1CCCN(C(=O)c2cc3cc(F)ccc3[nH]2)CC1 |  | nucleotide incorporation |  | <100 µM
Cc1cc(-c2ccc(NC(=O)CSc3nnnn3-c3ccc(C(C)(C)C)cc3Cl)c(Cl)c2)ccc1OCC(=O)O |  | PicoGreen / fluorescence | RT-K103 Y181C | <1 µM
COc1ccc2c(C3CC3)ccc(-n3c(Br)nnc3SCC(=O)Nc3ccc(S(=O)(=O)O)cc3Cl)c2c1 |  | nucleotide incorporation / radiometric | RT-Y188L | 0.05–0.1 µM
CCN1c2ncc(CCOc3ccc(CC(=O)O)c4c3CCCC4)cc2C(=O)N(C)c2ccc(Cl)nc21 |  | nucleotide incorporation / radiometric | RT-K103N Y181C | 0.1–1 µM
CCN1c2ncc(CCOc3ccc(C(=O)NS(=O)(=O)c4ccccc4)cc3C)cc2C(=O)N(C)c2cccnc21 | IIIB | nucleotide incorporation / radiometric | RT-K103N Y181C | >0.1 µM
CC(C)(C#Cc1ccc(NC(=O)CSc2nnnn2-c2ccc(C3CC3)cc2Cl)c(Cl)c1)OCCO | WT | PicoGreen / fluorescence |  | <1 µM
Cc1cc(C2CC2)c2ccccc2c1-n1c(Br)nnc1SCC(=O)Nc1ccc(S(=O)(=O)O)cc1Cl |  | nucleotide incorporation / radiometric |  | <0.05 µM
CCN1c2ncc(CCOc3ccc(CC(=O)O)c4ccccc34)cc2C(=O)N(C)c2ccc(C)nc21 | WT | nucleotide incorporation / radiometric |  | <0.1 µM
O=C(CSc1nnc(Br)n1-c1ccc(C2CC2)cc1Cl)Nc1ccc(S(=O)(=O)O)cc1Cl |  | nucleotide incorporation / radiometric | RT-Y181C | <0.05 µM
CC(C)(C)c1ccc(-n2nnnc2SCC(=O)Nc2ccc(NC(=O)Cc3ccc[n+]([O-])c3)cc2Cl)c(Cl)c1 | WT | PicoGreen / fluorescence |  | <1 µM
CC(C)OC(=O)CNC(=O)c1ccc(NC(=O)CSc2nnc(Br)n2-c2ccc(C3CC3)c3ccccc23)c(Cl)c1 |  | nucleotide incorporation / radiometric | RT-Y181C | <0.05 µM
CC(C)(C)c1ccc(-n2nnnc2SCC(=O)Nc2ccc(OCC(=O)N3CCC(C(=O)O)CC3)cc2Cl)c(Cl)c1 |  | PicoGreen / fluorescence | RT-K103 Y181C | <1 µM
CCN1c2ncc(CCOc3ccc4cc(C(=O)NC(C)(C)C(=O)O)ccc4c3)cc2C(=O)N(C)c2cccnc21 | WT | nucleotide incorporation / radiometric |  | <0.1 µM
O=C(CSc1nnnn1-c1ccc(C2CC2)cc1Cl)Nc1ccc(-c2ccc(OCCN3CCCC3)cc2)c(F)c1Cl |  | PicoGreen / fluorescence | RT-K103 Y181C | <1 µM
CCN1c2ncc(CCOc3ccc(C(C)C(=O)O)c4ccccc34)cc2C(=O)N(C)c2cccnc21 |  | nucleotide incorporation / radiometric | RT-Y188L | >1 µM
Cc1cc(C2CC2)cc(Cl)c1-n1c(Br)nnc1SCC(=O)Nc1ccc(S(N)(=O)=O)cc1Cl |  | nucleotide incorporation / radiometric | RT-Y181C | <0.05 µM
CCN1c2ncc(CCOc3ccc(-c4cc(CC(=O)O)ccc4OC)cc3C)cc2C(=O)N(C)c2cccnc21 | IIIB | nucleotide incorporation / radiometric | RT-K103N Y181C | 0.05–0.1 µM
O=C(CSc1nnnn1-c1c(Cl)cccc1Cl)Nc1ccccc1[N+](=O)[O-] |  | fluorescence | RT-K103N Y181C | ≥0.1 µM
Cc1ccc2ccccc2c1-n1c(Br)nnc1SC(C)C(=O)Nc1ccc(S(N)(=O)=O)cc1Cl |  | nucleotide incorporation / radiometric |  | <0.05 µM
CC(C)(C#Cc1ccc(NC(=O)CSc2nnnn2-c2ccc(C(C)(C)C)cc2Cl)c(Cl)c1)OCC(=O)Nc1ccncc1 |  | PicoGreen / fluorescence | RT-K103 Y181C | <1 µM
Cc1cc(C)c(-n2nnnc2SCC(=O)Nc2ccc3c(c2)OCO3)c(C)c1 |  | fluorescence |  | <0.05 µM
CCN1c2ncc(CCOc3ccc(/C=C(\C)C(=O)O)c4ccccc34)cc2C(=O)N(C)c2ccc(C)nc21 | WT | nucleotide incorporation / radiometric |  | <0.1 µM
CC(C)(C#Cc1ccc(NC(=O)CSc2nnnn2-c2ccc(C3CC3)cc2Cl)c(Cl)c1F)OCCO |  | PicoGreen / fluorescence | RT-K103 Y181C | <1 µM
CNc1cccnc1N1CCN(C(=O)c2cc3cc(F)ccc3[nH]2)CC1 |  | nucleotide incorporation |  | <100 µM
C=C(C)OC(=O)N1c2cc(Cl)ccc2NC(=S)C1(C)C | MN | radiometric |  | 0.14 µM
Cc1ccc2c(c1)N(CCCCl)C(=O)c1ccnnc1O2 |  | ELISA |  | ~330 µM
COP(=O)(c1cc(C)cc(CCC#N)c1)c1c(C(N)=O)[nH]c2ccc(Cl)c(F)c12 |  | RT activity | Y181C | 0.526 µM
Cc1cc(OCC(=O)O)ccc1-c1ccc(NC(=O)CSc2nnnn2-c2ccc(C(C)(C)C)cc2Cl)c(Cl)c1 |  | PicoGreen / fluorescence | RT-K103 Y181C | <1 µM
CCN1c2ncc(CCOc3ccc(CC(=O)O)c4ccccc34)cc2C(=O)N(C)c2cccnc21 | WT | nucleotide incorporation / radiometric |  | <0.1 µM
CCCCCCNC(=O)c1ccc(NC(=O)CSc2nnc(Br)n2-c2ccc(CC)c3ccccc23)c(Cl)c1 |  | nucleotide incorporation / radiometric | RT-Y181C | <0.05 µM
CC(C)(C)c1ccc(-n2nnnc2SCC(=O)Nc2ccc(S(=O)(=O)CC(=O)O)cc2Cl)c(Cl)c1 |  | fluorescence | RT-K103N Y181C | 0.05–0.1 µM
CC(C)Nc1cccnc1N1CCN(C(=O)c2cc3cccnc3[nH]2)CC1 |  | nucleotide incorporation |  | <100 µM
COC(=O)/C=C(/C)c1ccc(NC(=O)CSc2nnnn2-c2ccc(C3CC3)cc2Cl)c(Cl)c1 |  | PicoGreen / fluorescence | RT-K103 Y181C | <1 µM
Cc1cc(S(N)(=O)=O)ccc1NC(=O)CSc1nnc(Br)n1-c1c(Cl)cc(C2CCC2)c2ccccc12 |  | nucleotide incorporation / radiometric |  | <0.05 µM
CC(C)(C#Cc1ccc(NC(=O)CSc2nnnn2-c2ccc(C3CC3)cc2Cl)c(Cl)c1)NC(=O)c1csnn1 | WT | PicoGreen / fluorescence |  | <1 µM
NS(=O)(=O)c1ccc(NC(=O)CSc2nnc(C(F)F)n2-c2ccc(C3CC3)c3ccccc23)c(Cl)c1 |  | nucleotide incorporation / radiometric | RT-Y181C | <0.05 µM
CC(C)(C)c1ccc(-n2nnnc2SCC(=O)Nc2ccc(C#CCN3CCCCC3)cc2Cl)c(Cl)c1 |  | PicoGreen / fluorescence | RT-K103 Y181C | <1 µM
Cn1c(-c2ccc(F)cc2F)cs/c1=N\N=C1\C(=O)Nc2ccccc21 |  | RT activity / nucleotide incorporation / fluorescence |  | 30 µM
Cc1cc(C)c(-n2nnnc2SCC(=O)Nc2ccc(C#CC(C)(C)O)cc2Cl)c(Cl)c1 | WT | PicoGreen / fluorescence |  | <1 µM
CCCCNC(=O)c1ccc(NC(=O)CSc2nnc(Br)n2-c2ccc(CC)c3ccccc23)c(Cl)c1 |  | nucleotide incorporation / radiometric | RT-Y188L | >0.1 µM
CC(C)(C#Cc1ccc(NC(=O)CSc2nnnn2-c2ccc(C3CC3)cc2Cl)c(Cl)c1)C(=O)NCc1cc[n+]([O-])cc1 |  | PicoGreen / fluorescence | RT-K103 Y181C | <1 µM
Cc1cc(C2CC2)cc(Cl)c1-n1c(Br)nnc1SCC(=O)Nc1ccc(C(=O)O)cc1Cl |  | nucleotide incorporation / radiometric | RT-Y181C | <0.05 µM
CCN1c2ncc(CCOc3ccc(C(=O)N=c4ccccn4O)cc3C)cc2C(=O)N(C)c2cccnc21 | IIIB | nucleotide incorporation / radiometric | RT-K103N Y181C | <0.05 µM
CN1CCN(C(=O)NC(C)(C)C#Cc2ccc(NC(=O)CSc3nnnn3-c3ccc(C4CC4)cc3Cl)c(Cl)c2)CC1 | WT | PicoGreen / fluorescence |  | <1 µM
CCOC(=O)CNC(=O)c1ccc(NC(=O)CSc2nnc(Br)n2-c2ccc(C3CC3)c3ccccc23)c(Cl)c1 |  | nucleotide incorporation / radiometric | RT-Y188L | <0.05 µM
CC(C)(C)c1ccc(-n2nnnc2SCC(=O)Nc2ccc(-c3ncc[nH]3)cc2Cl)c(Cl)c1 |  | PicoGreen / fluorescence | RT-K103 Y181C | <1 µM
Cc1cc(C2CC2)c2ccccc2c1-n1c(Br)nnc1SCC(=O)Nc1ccc(C(=O)O)cc1Cl |  | nucleotide incorporation / radiometric |  | <0.05 µM
O=C(CCc1occc1-c1cccc2ccccc12)Nc1ccccc1[N+](=O)[O-] |  | fluorescence |  | ≥0.1 µM
CC(C)(C#Cc1ccc(NC(=O)CSc2nnnn2-c2ccc(C3CC3)cc2Cl)c(Cl)c1)NC(=O)CC(=O)O |  | PicoGreen / fluorescence | RT-K103 Y181C | <1 µM
Cc1cc(S(N)(=O)=O)ccc1NC(=O)CSc1nnc(C)n1-c1ccc(C)c2c1CCCC2 |  | nucleotide incorporation / radiometric | RT-Y188L | >0.1 µM
CC(C)(C)c1ccc(-n2nnnc2SCC(=O)Nc2ccc(OCC(=O)NCC(=O)O)cc2Cl)c(Cl)c1 |  | PicoGreen / fluorescence | RT-K103 Y181C | <1 µM
Cc1ccc2c(c1)N(C(C)C)C(=O)c1cc(Cl)nnc1O2 |  | ELISA |  | <330 µM
C/C(=C\c1ccc(NC(=O)CSc2nnnn2-c2ccc(C3CC3)cc2Cl)c(Cl)c1)C(=O)O |  | PicoGreen / fluorescence | RT-K103 Y181C | <1 µM
Cn1c(-c2ccc(Cl)c(Cl)c2)cs/c1=N\N=C1\C(=O)Nc2ccccc21 |  | RT activity / nucleotide incorporation / fluorescence |  | 50 µM

Repeating the final 6 entries:

structure	strain or isolate	method	mutations	value
CC(C)(C#Cc1ccc(NC(=O)CSc2nnnn2-c2ccc(C3CC3)cc2Cl)c(Cl)c1)NC(=O)CC(=O)O		PicoGreen / fluorescence	RT-K103 Y181C	<1 µM
Cc1cc(S(N)(=O)=O)ccc1NC(=O)CSc1nnc(C)n1-c1ccc(C)c2c1CCCC2		nucleotide incorporation / radiometric	RT-Y188L	>0.1 µM
CC(C)(C)c1ccc(-n2nnnc2SCC(=O)Nc2ccc(OCC(=O)NCC(=O)O)cc2Cl)c(Cl)c1		PicoGreen / fluorescence	RT-K103 Y181C	<1 µM
Cc1ccc2c(c1)N(C(C)C)C(=O)c1cc(Cl)nnc1O2		ELISA		<330 µM
C/C(=C\c1ccc(NC(=O)CSc2nnnn2-c2ccc(C3CC3)cc2Cl)c(Cl)c1)C(=O)O		PicoGreen / fluorescence	RT-K103 Y181C	<1 µM
Cn1c(-c2ccc(Cl)c(Cl)c2)cs/c1=N\N=C1\C(=O)Nc2ccccc21		RT activity / nucleotide incorporation / fluorescence		50 µM

ICn is the concentration giving n% inhibition. a–b is a range or a potency band. Blank or dashed fields: not listed here.